Compound potency records, mixed from different reports. Data source: NIAID ChemDB in PubChem.

All rows: whole-cell or culture tests; agent: HIV-2; cell line: CEM; endpoint: EC50

ECn: concentration that inhibits the pathogen or its effect by n%. An empty or dashed field is not shown. Lines come from different laboratories, so protocols vary.

{"SMILES": "Cc1cn([C@@H]2O[C@H](CO[Si](c3ccccc3)(c3ccccc3)C(C)(C)C)C3(OS(=O)(=O)C=C3N)[C@H]2O[Si](c2ccccc2)(c2ccccc2)C(C)(C)C)c(=O)[nH]c1=O", "strain": "ROD", "read by": "syncytia", "value": ">150 µM"}
{"SMILES": "CCc1c(OCc2cccc3ccccc23)cc(C)oc1=O", "strain": "ROD", "read by": "MTT", "value": ">0.4 µM"}
{"SMILES": "CCCCNc1nc(N)nc2c1[nH]c[n+]2C[C@@H](C)OCP(=O)(O)O", "strain": "ROD", "read by": "cytopathic effect / MTT", "value": "10 µg/mL"}
{"SMILES": "OB(O)c1ccccc1COc1c(F)cccc1F", "strain": "ROD", "read by": "syncytia", "value": ">50 µM"}
{"SMILES": "Cc1cc(N[C@H](C)c2cccc3ccccc23)c(C(=O)C(Cl)Cl)c(=O)o1", "strain": "ROD", "read by": "MTT", "value": ">10 µM"}
{"SMILES": "CCCN(C)c1nc(N)nc2c1[nH]c[n+]2C[C@@H](C)OCP(=O)(O)O", "strain": "ROD", "read by": "cytopathic effect / MTT", "value": "5.5 ± 2.1 µg/mL"}
{"SMILES": "COc1ccc(B(O)O)cc1C=O", "strain": "ROD", "read by": "syncytia", "value": ">10 µM"}
{"SMILES": "Nc1ncnc2c1ncn2CC(OCP(=O)(O)O)Sc1ccccc1", "read by": "cytopathic effect", "value": "33.3 µg/mL"}
{"SMILES": "Cc1cn([C@@H]2O[C@H](CO[Si](C)(C)C(C)(C)C)[C@@H](O)[C@H]2O[Si](C)(C)C(C)(C)C)c(=O)n(CC#N)c1=O", "strain": "ROD", "read by": "syncytia", "value": ">10 µM"}
{"SMILES": "OB(O)c1ccc(Br)cc1", "strain": "ROD", "read by": "syncytia", "value": ">50 µM"}
{"SMILES": "Cc1cn([C@@H]2O[C@H](CO[Si](C(C)(C)C)(C(C)(C)C)C(C)(C)C)C3(OS(=O)(=O)C=C3N)[C@H]2O[Si](C)(C)C(C)(C)C)c(=O)n(C)c1=O", "strain": "ROD", "read by": "syncytia", "value": ">12 µM"}
{"SMILES": "O=c1[nH]cnc2c1ncn2[C@H]1CC[C@@H](CO)O1", "strain": "ROD", "read by": "syncytia", "value": "1.8 µM"}
{"SMILES": "C[C@H](C[n+]1c[nH]c2c(NCCCC3CCCCC3)nc(N)nc21)OCP(=O)(O)O", "strain": "ROD", "read by": "cytopathic effect / MTT", "value": "2.5 ± 0.7 µg/mL"}
{"SMILES": "Cc1cc(S(=O)(=O)Cc2cccc3ccccc23)cc(=O)o1", "strain": "ROD", "read by": "MTT", "value": ">10 µM"}
{"SMILES": "Cc1cccc2c1OP(=O)(OCCOCn1cnc3c(=O)[nH]c(N)nc31)OC2", "strain": "ROD", "read by": "syncytia", "value": ">50 µM"}
{"SMILES": "Cc1cn([C@@H]2O[C@H](COCc3ccccc3)C3(OS(=O)(=O)C(Cc4ccccc4)=C3NCc3ccccc3)[C@H]2O[Si](C)(C)C(C)(C)C)c(=O)n(C)c1=O", "strain": "ROD", "read by": "syncytia", "value": ">130 µM"}
{"SMILES": "CC(C)(C)[Si](C)(C)OC[C@H]1O[C@@H](n2ccc(=O)n(CC(=O)O)c2=O)[C@H](O[Si](C)(C)C(C)(C)C)[C@@H]1O", "strain": "ROD", "read by": "syncytia", "value": ">10 µM"}
{"SMILES": "Cc1cccc2c1OP(=O)(OC[C@@H]1C=C[C@H](n3cnc4c(NC5CC5)nc(N)nc43)C1)OC2", "strain": "ROD", "read by": "syncytia", "value": "0.75 µM"}
{"SMILES": "Cc1cn([C@@H]2O[C@H](CO[Si](C)(C)C(C)(C)C)[C@@H](O[Si](C)(C)C(C)(C)C)[C@H]2O)c(=O)n(CC(=O)ON)c1=O", "strain": "ROD", "read by": "syncytia", "value": ">2 µM"}
{"SMILES": "O=c1[nH]c(=O)n([C@H]2CC(F)(F)[C@@H](CO)O2)cc1COCC(F)(F)F", "read by": "p24", "value": "≥100 µg/mL"}
{"SMILES": "Cc1cn([C@@H]2O[C@H](CO[Si](C)(C)C(C)(C)C)[C@@H](O)[C@H]2O[Si](C)(C)C(C)(C)C)c(=O)n(CCO)c1=O", "strain": "ROD", "read by": "syncytia", "value": ">50 µM"}
{"SMILES": "Cc1cn([C@H]2C[C@H](Nc3nc(N)nn3C)[C@@H](CO)O2)c(=O)[nH]c1=O", "strain": "ROD", "read by": "cytopathic effect / MTT", "value": "65 µg/mL"}
{"SMILES": "Cc1cn([C@H]2C=C[C@@H](COP3(=O)OCc4cccc(-c5cccc6c5OC(C)(C)OC6)c4O3)O2)c(=O)[nH]c1=O", "strain": "LAV-2", "read by": "syncytia", "value": "0.4 µM"}
{"SMILES": "Cc1cn([C@H]2C[C@@H]3NC(NC#N)=NC[C@H]3O2)c(=O)[nH]c1=O", "strain": "ROD", "read by": "cytopathic effect / MTT", "value": ">100 µg/mL"}
{"SMILES": "O=c1[nH]c(=O)n([C@H]2C[C@H](O)[C@@H](CO)O2)cc1COCC(F)(F)F", "read by": "p24", "value": "100 µg/mL"}
{"SMILES": "Nc1nc(NC2CC2)c2ncn([C@H]3C=C[C@@H](COP4(=O)OCc5ccccc5O4)C3)c2n1", "strain": "ROD", "read by": "syncytia", "value": "1.1 µM"}
{"SMILES": "Cc1cn([C@H]2C=C[C@@H](CO[P@]3(=O)OCc4cccc(-c5cccc6c5OC(C)(C)OC6)c4O3)O2)c(=O)[nH]c1=O", "strain": "LAV-2", "read by": "syncytia", "value": "0.4 µM"}
{"SMILES": "C[C@H](C[n+]1c[nH]c2c(N(C)C)nc(N)nc21)OCP(=O)(O)O", "strain": "ROD", "read by": "cytopathic effect / MTT", "value": "9 ± 1.4 µg/mL"}
{"SMILES": "Nc1nc(=O)n([C@H]2C[C@H](O)[C@@H](CO)O2)cc1COCC(F)(F)F", "read by": "p24", "value": ">100 µg/mL"}
{"SMILES": "Cc1cn([C@@H]2O[C@H](CO[Si](c3ccccc3)(c3ccccc3)C(C)(C)C)C3(OS(=O)(=O)C=C3N)[C@H]2O[Si](C)(C)C(C)(C)C)c(=O)n(C)c1=O", "strain": "ROD", "read by": "syncytia", "value": ">60 µM"}
{"SMILES": "Cc1cc(NCc2ccccc2)cc(=O)o1", "strain": "ROD", "read by": "MTT", "value": ">250 µM"}
{"SMILES": "Nc1nc2c(ncn2COCCOP2(=O)OCc3ccccc3O2)c(=O)[nH]1", "strain": "ROD", "read by": "syncytia", "value": "≥50 µM"}
{"SMILES": "CCCC(C)(C)[Si](C)(C)OC[C@H]1O[C@@H](n2cc(C)c(=O)n(CC(=O)O)c2=O)[C@H](O[Si](C)(C)C(C)(C)CCC)[C@@H]1O", "strain": "ROD", "read by": "syncytia", "value": ">10 µM"}
{"SMILES": "Nc1nc(NC2CC2)c2ncn([C@H]3C=C[C@@H](CO)C3)c2n1", "strain": "ROD", "read by": "syncytia", "value": "6 µM"}
{"SMILES": "COC(=O)[C@@H](C)NP(=O)(OC[C@@H]1C=C[C@H](n2cc(C)c(=O)[nH]c2=O)O1)Oc1ccccc1", "value": "2 µM"}
{"SMILES": "CC(C)(C)[Si](C)(C)OC[C@@H]1CC[C@H](n2cnc3c(=O)n(CC(=O)OCc4ccccc4)cnc32)O1", "strain": "ROD", "read by": "syncytia", "value": ">50 µM"}
{"SMILES": "O=P(O)(O)COCCn1cnc2c(NC3CCCCC3)ncnc21", "strain": "ROD", "read by": "cytopathic effect / MTT", "value": ">100 µg/mL"}
{"SMILES": "OB(O)c1ccc(Cl)cc1", "strain": "ROD", "read by": "syncytia", "value": ">50 µM"}

Repeating the final 4 entries:

| SMILES | strain | read by | value |
|---|---|---|---|
| COC(=O)[C@@H](C)NP(=O)(OC[C@@H]1C=C[C@H](n2cc(C)c(=O)[nH]c2=O)O1)Oc1ccccc1 |  |  | 2 µM |
| CC(C)(C)[Si](C)(C)OC[C@@H]1CC[C@H](n2cnc3c(=O)n(CC(=O)OCc4ccccc4)cnc32)O1 | ROD | syncytia | >50 µM |
| O=P(O)(O)COCCn1cnc2c(NC3CCCCC3)ncnc21 | ROD | cytopathic effect / MTT | >100 µg/mL |
| OB(O)c1ccc(Cl)cc1 | ROD | syncytia | >50 µM |